Data as given in PubChem BioAssay AID1259414 (Drosophila RNAi Screening Center, 2018)
Screen: 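Fly genes that alter Wolbachia amount inside host cells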 (primary screen). System: Drosophila JW18 cells infected with Wolbachia. Knock-down reagent: long dsRNA against Drosophila genes, 0.25 µg dsRNA per well of a 384-well plate. Time to read-out: 5 days. Treatment: cells persistently infected with Wolbachia before knock-down; no added drug. Read-out: 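Automated imaging of bacterial rRNA staining divided by host cell count, reported as plate-normalised robust z-score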. Reading the numbers: Wolbachia per cell robust z: higher = more Wolbachia per host cell than the plate typical. Hit rule: 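Active if absolute robust z reaches 1.5 in two or more of three replicates, leaving out multi- or no-target dsRNAs, genes unexpressed in JW18 and A1 wells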.
The deposit covers about 24,000 reagents; shown is a random part of those that have a named target and a result. In the full data, about 1,210 (5%) are marked active. 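Inactive calls also include excluded dsRNAs with several or no targets, genes unexpressed in JW18, and well A1, regardless of score.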 A number with no mark means an inactive call. The numbers tell different reagents against one gene apart. No sequences are given here.

predicted target	dsRNA no.	Wolbachia per cell robust z, rep 1	Wolbachia per cell robust z, rep 2	Wolbachia per cell robust z, rep 3
Ice1	1	1.74 (active)	1.39	1.53
Ice1	2	0.178	-0.737	-0.102
Rab11	1	0.813	0.697	0.832
Rab11	2	0.161	-0.0393	1.33
NimA	1	-0.729	-1.51	-2.51
NimA	2	1.01	0.79	-0.55
NimA	3	0.827	0.296	0.118
NimA	4	0.475	-1.88	0.678
Rox8	1	0.363	-1.97	0.3
Rox8	2	0.254	0.491	-0.0726

Ordered by “Wolbachia per cell robust z, rep 1” (highest first): 3 of the entries above
predicted target	dsRNA no.	Wolbachia per cell robust z, rep 1	Wolbachia per cell robust z, rep 2	Wolbachia per cell robust z, rep 3
NimA	3	0.827	0.296	0.118
NimA	4	0.475	-1.88	0.678
Rox8	1	0.363	-1.97	0.3

More entries:
predicted target	dsRNA no.	Wolbachia per cell robust z, rep 1	Wolbachia per cell robust z, rep 2	Wolbachia per cell robust z, rep 3
CG1463	1	-1.61	-0.559	0.846
mRpL46	1	-4.27	0.618	0.557
CG2983	1	-0.496	-0.00859	-1.57
mRpS18A	1	-0.86	-0.538	-0.262
asrij	1	1.69	-0.139	1.05
spel1	1	-0.000264	-0.366	0.324
spel1	2	-0.252	0.169	-0.272
CG13407	1	-1.67	-0.732	-2.92
CG13407	2	-0.855	-0.0653	1.42
CG4953	1	-0.763	-0.622	0.333
CG10098	1	0.209	-0.213	0.89
CG10098	2	0.833	-0.416	0.511
CkIIbeta2	1	-3.7	-0.194	-0.0423
CG4020	1	-0.916	0.278	1.02
ocn	1	0.808	0.313	-5.86
Glut3	1	0.854	-0.118	0.361
Glut3	2	3.13	1.05	-0.355
CG14125	1	-2.82	-0.315	0.433
